Results taken from patent US20020192774A1, “Method for processing lignocellulosic material” (priority 2000, published 2002).

Key:
Saccharomyces cerevisiae = assay: Potential fermentation inhibitors during S. cerevisiae fermentation of wet oxidised wheat straw medium; details: for concentration at S. cerevisiae, end / T. mathranii, start: after five days at 30° C., pH 6.0; for concentration at S. cerevisiae, start: wet oxidised wheat straw medium 60 g/l straw, before yeast fermentation; for metabolised by S. cerevisiae: mesophilic hexose fermentation step, in words
[1] = tested on: Thermoanaerobacter mathranii A3M4; assay: Potential fermentation inhibitors during T. mathranii A3M4 fermentation of wet oxidised wheat straw medium; details: after five days at 70° C., pH 6.8
[2] = tested on: consortium of thermophilic methanogenic Archaea; assay: Thermophilic anaerobic wastewater treatment (methane production) of ethanol fermentation effluent; details: after anaerobic wastewater treatment at 55° C.

| SMILES | concentration at S. cerevisiae, end / T. mathranii, start (Saccharomyces cerevisiae) [mg/L] | concentration at S. cerevisiae, start (Saccharomyces cerevisiae) [mg/L] | concentration at T. mathranii, end / Ww-treatment, start [1] [mg/L] | concentration at Ww-treatment, end [2] [mg/L] | metabolised by S. cerevisiae (Saccharomyces cerevisiae) |
| --- | --- | --- | --- | --- | --- |
| O=C(O)c1ccco1 [2-Furoic acid] | 6.2 | 7.2 | 6.5 | 0.0 |  |
| CC(=O)c1ccc(O)cc1 [4-hydroxy acetophenone] | 2.5 | 2.8 | 2.7 | 0.2 |  |
| O=Cc1ccc(O)cc1 [4-hydroxybenzaldehyde] | 0.9 | 13.7 | 0.6 | 0.0 | almost completely metabolised |
| O=C(O)c1ccc(O)cc1 [4-hydroxybenzoic acid] | 22.8 | 23.7 |  | 0.0 |  |
| CC(=O)O [Acetic acid] | 23.0 | 23.5 |  | 1.8 |  |
| COc1cc(C(C)=O)cc(OC)c1O [Acetosyringone, 4-hydroxy-3,5dimethoxyacetophenone] | 19.0 | 17.4 |  | 1.9 |  |
| COc1cc(C(C)=O)ccc1O [Acetovanillione] | 5.0 | 5.0 |  | 0.2 |  |
| COc1cccc(OC)c1O [Syringol] | 2.8 | 2.3 |  | 0.0 |  |
| COc1cc(C(=O)O)ccc1O [Vanillic acid] | 31.2 | 32.3 | 30.6 | 0.1 |  |
| COc1cc(/C=C/C(=O)O)ccc1O [ferulic acid] | 3.4 | 2.1 | 3.0 | 0.2 |  |
| COc1ccccc1O [guaiacol] | 8.0 | 8.5 | 8.2 | 0.0 |  |
| O=C(O)/C=C/c1ccc(O)cc1 [p-coumaric acid] | 5.1 | 5.0 | 4.7 | 0.0 |  |
| COc1cc(C=O)ccc1O [vanillin] | 1.9 | 10.6 | 1.1 | 0.1 | almost completely metabolised |
